We go through one compound from patent US20240209034A1 (priority 2021, published 2024).

A short description of the data set: in vitro. The conditions noted are these: mouse, serum.

Molecules are shown by their SMILES.

By amount remaining is commonly meant the share of the starting amount still present when the sample was taken. The low end stands for a greater loss, the high end for greater stability. Turning to `CC(C)C[C@@H]1NC(=O)[C@H](CC(=O)O)NC(=O)CNC(=O)[C@H](CCCNC(=N)N)NC(=O)[C@H](CC(C)C)NC(=O)[C@H](CC(N)=O)NC(=O)[C@@H]2C[C@@H](O)CN2C(=O)[C@H](C(C)C)NC(=O)[C@@H](NC(=O)[C@H](CC(N)=O)NC(=O)CCCC[C@@H]2SC[C@@H]3NC(=O)N[C@@H]32)CSc2c(F)c(F)c(c(F)c2F)-c2c(F)c(F)c(c(F)c2F)SC[C@@H](C(=O)N[C@H](CCCNC(=N)N)C(=O)N[C@H](C(=O)N[C@@H](CCCCN)C(=O)N[C@H](C)C(N)=O)[C@@H](C)O)NC(=O)[C@H](C(C)C)NC(=O)[C@H](CCCCN)NC(=O)[C@H](CCC(N)=O)NC(=O)[C@H](C)NC(=O)[C@H](CC(C)C)NC(=O)[C@H](C(C)C)NC(=O)[C@H](CCC(N)=O)NC1=O` [C2C18 Ph RDTKAD DFBP], the fraction remaining at 24 h is 10.9%.
